Compound potency records, mixed from different reports. Data source: NIAID ChemDB in PubChem.

All rows: target-level tests; species: HIV-1; target: Protease

a–b is a range or a potency band. Neighbouring rows are from separate reports. ICn is the concentration giving n% inhibition. Blank or dashed fields: not listed here.

| SMILES | method | endpoint | mutations | conditions | value |
|---|---|---|---|---|---|
| CC(C)(CCCCCN=C(N)NC#N)CN(C[C@@H](O)[C@H](Cc1ccccc1)NC(=O)O[C@H]1CO[C@H]2OCC[C@H]21)S(=O)(=O)c1ccc2c(c1)OCO2 | fluorescence | Ki |  |  | <0.001 µM |
| COc1ccc(C[C@H](C[C@H](O)[C@H](Cc2ccccc2)NC(=O)OC(C)(C)C)C(=O)N[C@H](C(=O)NCCN(C)C)C(C)C)cc1 | fluorescence | IC50 |  |  | 0.005 µM |
| COc1ccc(S(=O)(=O)N(CC(C)C)C[C@@H](O)[C@H](Cc2ccccc2)NC(=O)c2ccccc2CS(C)(=O)=O)cc1 |  | IC50 |  |  | <1 µM |
| COCCNC(=O)[C@@H](NC(=O)[C@H](Cc1cc(OC)c(OC)c(OC)c1)C[C@H](O)[C@H](Cc1ccccc1)NC(=O)OC(C)(C)C)C(C)C | fluorescence | IC50 |  |  | 0.011 µM |
| COC(=O)N[C@H](C(=O)NN(CC[C@@]1(Cc2ccccc2)C(=O)N(C2c3ccccc3C[C@H]2O)C[C@H]1O)Cc1ccc(-c2ccccn2)cc1)C(C)(C)C | fluorescence | Ki |  |  | 0.0063 µM |
| CC(C)CN(C[C@@H](O)[C@H](Cc1ccccc1)NC(=O)OCc1cccnc1)S(=O)(=O)c1ccccc1 |  | IC50 |  |  | 0.005 µM |
| C[C@H](CCC(=O)O)[C@H]1CC[C@H]2[C@@H]3[C@H](O)C[C@@H]4C[C@H](O)CC[C@]4(C)[C@H]3CC[C@]12C | absorbance | IC50 |  |  | 40 µM |
| COc1ccc(S(=O)(=O)N(C[C@@H](O)[C@H](Cc2ccccc2)NC(=O)O[C@H]2CO[C@H]3OCC[C@H]32)CC(C)(C)CCCN(C)C)cc1 | fluorescence | Ki |  |  | <0.001 µM |
| CC(C)(C)OC(=O)N[C@@H](Cc1ccccc1)[C@H](O)CN[C@H](Cc1ccccc1)C(O)CNC(=O)OCc1ccccc1 | HPLC | IC50 |  | pH 5.5 | >10 µM |
| CC(C)(CCCCCNC(=O)c1cccs1)CN(C[C@@H](O)[C@H](Cc1ccccc1)NC(=O)O[C@H]1CO[C@H]2OCC[C@H]21)S(=O)(=O)c1ccc2c(c1)OCO2 | fluorescence | Ki |  |  | <0.001 µM |
| C/C(O)=C/C1CC(=O)OC1Nc1ccc(Br)cc1Br | HPLC | IC50 |  |  | 221 µM |
| C=C(C)[C@@H]1CC[C@]2(C(=O)O)CC[C@]3(C)[C@H](CC[C@@H]4[C@@]5(C)CC[C@H](O)C(C)(C)[C@@H]5CC[C@]43C)[C@@H]12 | absorbance | IC50 |  |  | 2.5 µM |
| CCCCCCCCCCCCCCC(=O)C1=C([O-])C(CO)OC1=O.[Na+] | HPLC | IC50 |  |  | 123 µM |
| COc1ccc(S(=O)(=O)N(C[C@@H](O)[C@H](Cc2ccccc2)NC(=O)OCCS(C)(=O)=O)CC(C)(C)CCC#N)cc1 | fluorescence | Ki |  |  | 0.001–0.01 µM |
| CC(C)(C)OC(=O)N[C@@H](Cc1ccccc1)[C@H](O)CNC[C@@H](O)[C@H](Cc1ccccc1)NC(=O)OC1c2ccccc2CC1O | HPLC | IC50 |  | pH 5.5 | <10 µM |
| CC(C)[C@H](NC(=O)[C@H](Cc1ccc(O)cc1)C[C@H](O)[C@H](Cc1ccccc1)NC(=O)OC(C)(C)C)C(=O)N[C@@H](Cc1ccccc1)C(=O)N1CCOCC1 | fluorescence | IC50 |  |  | 0.002 µM |
| Cc1ccc(S(=O)(=O)N[C@@H](C)C(=O)N[C@H](C(=O)N[C@@H](Cc2ccccc2)[C@@H](O)[C@H](O)[C@H](Cc2ccccc2)NC(=O)[C@@H](NC(=O)[C@H](C)NS(=O)(=O)c2ccc(C)cc2)C(C)C)C(C)C)cc1 |  | IC50 | PR-V82F |  | 0.006 µM |
| CC(C)(CCCCNC(=O)C1CCC1)CN(C[C@@H](O)[C@H](Cc1ccccc1)NC(=O)O[C@H]1CO[C@H]2OCC[C@H]21)S(=O)(=O)c1ccc2c(c1)OCO2 | fluorescence | Ki |  |  | <0.001 µM |
| CC(C)(C)OC(=O)N[C@@H](Cc1ccccc1)[C@H](O)CNC[C@@H](O)[C@H](Cc1ccccc1)NC(=O)OC[C@@H](O)CO | HPLC | IC50 |  | pH 5.5 | <10 µM |
| COc1ccc(S(=O)(=O)N(CC(C)C)C[C@@H](O)[C@H](Cc2ccccc2)NC(=O)c2ccc(CS(C)(=O)=O)cc2)cc1 |  | IC50 |  |  | <1 µM |
| COC(=O)N[C@H](C(=O)NN(CC[C@@]1(Cc2ccccc2)C(=O)N(C2c3ccccc3C[C@H]2O)C[C@@H]1O)Cc1ccc(-c2ccncc2)cc1)C(C)(C)C | fluorescence | Ki |  |  | 0.0063 µM |
| CC(C)CCCCCCCCCCCCC(=O)C1=C([O-])C(CO)OC1=O.[Na+] | HPLC | IC50 |  |  | 112 µM |
| CC(C)N(C(=O)NCCCCC(C)(C)CN(C[C@@H](O)[C@H](Cc1ccccc1)NC(=O)O[C@H]1CO[C@H]2OCC[C@H]21)S(=O)(=O)c1ccc2c(c1)OCO2)C(C)C | fluorescence | Ki |  |  | <0.001 µM |
| COC(=O)[C@@H]1CCCN1C(=O)C(=O)C(Cc1ccccc1)NC(=O)OCc1ccccc1.COC(=O)[C@@H]1CCCN1C(=O)C(=O)C(Cc1ccccc1)NC(=O)OCc1ccccc1 | fluorescence | IC50 |  |  | 3.18 µM |
| O=C(Cc1ccccc1)N[C@@H](Cc1ccccc1)[C@H](O)CNC[C@@H](O)[C@H](Cc1ccccc1)NC(=O)Cc1ccccc1 | HPLC | IC50 |  | pH 5.5 | >10 µM |
| COc1ccccc1C[C@H](C[C@H](O)[C@H](Cc1ccccc1)NC(=O)OC(C)(C)C)C(=O)N[C@H](C(=O)NCCN(C)C)C(C)C | fluorescence | IC50 |  |  | 0.01 µM |
| COC(=O)N[C@H](C(=O)NN(CC[C@@]1(Cc2ccccc2)C(=O)N(C2c3ccccc3C[C@H]2O)C[C@@H]1O)Cc1ccc(Br)cc1)C(C)(C)C | fluorescence | Ki |  |  | 0.0063 µM |
| CC(C)[C@H](NC(=O)[C@H](C)NC(=O)[C@H](CO)NC(=O)OCc1ccccc1)C(=O)N[C@@H](Cc1ccccc1)[C@@H](O)[C@H](O)[C@H](Cc1ccccc1)NC(=O)[C@@H](NC(=O)[C@H](C)NC(=O)[C@H](CO)NC(=O)OCc1ccccc1)C(C)C |  | IC50 |  |  | 0.017 µM |
| CC(C)OC(=O)NCCCCC(C)(C)CN(C[C@@H](O)[C@H](Cc1ccccc1)NC(=O)O[C@@H]1CO[C@@H]2OCC[C@@H]21)S(=O)(=O)c1ccc2c(c1)OCO2 | fluorescence | Ki |  |  | <0.001 µM |
| CC(C)[C@H](NC(=O)[C@H](C)NC(=O)OCc1ccccc1)C(=O)N[C@@H](Cc1ccccc1)[C@@H](O)[C@H](O)[C@H](Cc1ccccc1)NC(=O)[C@@H](NC(=O)[C@H](C)NC(=O)OCc1ccccc1)C(C)C |  | IC50 | PR-V82A |  | 0.013 µM |
| COc1cccc(S(=O)(=O)N(C[C@@H](O)[C@H](Cc2ccccc2)NC(=O)O[C@H]2CO[C@H]3OCC[C@H]32)CC(C)(C)CCNC(=O)OC(C)C)c1 | fluorescence | Ki |  |  | <0.001 µM |
| CC(O)/C=C/C1OC(=O)CC1Nc1ccc(CO)cc1 | HPLC | IC50 |  |  | 508 µM |
| COCCNC(=O)[C@@H](NC(=O)[C@H](Cc1ccccc1)C[C@H](O)[C@H](Cc1ccccc1)NC(=O)OC(C)(C)C)C(C)C | fluorescence | IC50 |  |  | 0.002 µM |
| CC(C)(CCNC(=O)N1CCCC1)CN(C[C@@H](O)[C@H](Cc1ccccc1)NC(=O)O[C@H]1CO[C@H]2OCC[C@H]21)S(=O)(=O)c1ccc2c(c1)OCO2 | fluorescence | Ki |  |  | <0.001 µM |
| COC(=O)N[C@H](C(=O)NN(CC[C@@]1(Cc2ccccc2)C(=O)N(C2c3ccccc3C[C@H]2O)C[C@H]1O)Cc1ccc(-c2cccnc2)cc1)C(C)(C)C | fluorescence | Ki |  |  | 0.0063 µM |
| CC(C)[C@H](NC(=O)[C@H](Cc1ccc2c(c1)OCO2)C[C@H](O)[C@H](Cc1ccccc1)NC(=O)OC(C)(C)C)C(=O)N[C@@H](Cc1ccccc1)C(=O)N1CCOCC1 | fluorescence | IC50 |  |  | 0.005 µM |
| CON[C@H](C(=O)NC(=O)[C@H]1N(C(=O)[C@@H](O)[C@H](Cc2ccccc2)NC(=O)[C@@H](NC(=O)[C@H](C)NC(C)=O)C(C)C)CSC1(C)C)C(C)C |  | IC50 |  |  | 0.008 µM |
| COc1ccc(S(=O)(=O)N(CC(C)C)C[C@@H](O)[C@H](Cc2ccccc2)NC(=O)c2ccccc2S(C)(=O)=O)cc1 |  | IC50 |  |  | <10 µM |
| CON(C)C(=O)OCCCC(C)(C)CN(C[C@@H](O)[C@H](Cc1ccccc1)NC(=O)O[C@H]1CO[C@H]2OCC[C@H]21)S(=O)(=O)c1ccc2c(c1)OCO2 | fluorescence | Ki |  |  | <0.001 µM |
| CC(C)CCN(C[C@@H](O)[C@H](Cc1ccccc1)NC(=O)[C@@H](NC(=O)CN(C)C)C(C)(C)C)S(=O)(=O)c1ccccc1 |  | IC50 |  |  | 0.002 µM |
| COc1ccc(C[C@H](C[C@H](O)[C@H](Cc2ccccc2)NC(=O)OC(C)(C)C)C(=O)N[C@H](C(=O)N[C@@H](Cc2ccccc2)C(=O)N2CCOCC2)C(C)C)c(OC)c1 | fluorescence | IC50 |  |  | 0.018 µM |
| CC(C)CN(C[C@@H](O)[C@H](Cc1ccccc1)NC(=O)O[C@H]1CO[C@H]2OCC[C@H]21)S(=O)(=O)c1ccc2[nH]c(O)c(C=NCc3nc4ccccc4[nH]3)c2c1 | substrate cleavage | Ki | L10 L24 M36 I54 L63 A71 V82 I84 |  | <0.0001 µM |
| CNc1cccc(S(=O)(=O)N(C[C@@H](O)[C@H](Cc2ccccc2)NC(=O)O[C@H]2CO[C@H]3OCC[C@H]32)CC(C)(C)CCCCNS(C)(=O)=O)c1 | fluorescence | Ki |  |  | <0.001 µM |
| C=C/C(C)=C/C1(CC(N)=O)SC(=O)C(CC)=C1O | HPLC | IC50 |  |  | 191 µM |
| CC(C)(CCCCOC(=O)N1CCCC1)CN(C[C@@H](O)[C@H](Cc1ccccc1)NC(=O)O[C@H]1CO[C@H]2OCC[C@H]21)S(=O)(=O)c1ccc2c(c1)OCO2 | fluorescence | Ki |  |  | <0.001 µM |
| CCCCCCCCCCCCCCCC(=O)C1=C([O-])C(CO)OC1=O.[Na+] | HPLC | IC50 |  |  | 84 µM |
| COC(=O)NCCC(C)(C)CN(C[C@@H](O)[C@H](Cc1ccccc1)NC(=O)O[C@H]1CO[C@H]2OCC[C@H]21)S(=O)(=O)c1ccc(N)cc1 | fluorescence | Ki |  |  | <0.001 µM |
| COC(=O)N[C@H](C(=O)NN(CCC[C@@]1(Cc2ccccc2)C(=O)N(C2c3ccccc3C[C@H]2O)C[C@H]1O)Cc1ccc(Br)cc1)C(C)(C)C | fluorescence | Ki |  |  | 0.0063 µM |
| CC(C)(CCCCNC(=S)NC(C)(C)C)CN(C[C@@H](O)[C@H](Cc1ccccc1)NC(=O)O[C@H]1CO[C@H]2OCC[C@H]21)S(=O)(=O)c1ccc2c(c1)OCO2 | fluorescence | Ki |  |  | <0.001 µM |
| C[C@@H]1O[C@@H](O[C@H]2[C@H](O[C@H]3CC[C@@]4(C)[C@@H](CC[C@]5(C)[C@@H]4CC=C4[C@@H]6CC(C)(C)CC[C@]6(C(=O)O)CC[C@]45C)[C@]3(C)CO)OC[C@H](O)[C@@H]2O)[C@H](O)[C@H](O)[C@H]1O | absorbance | IC50 |  |  | 5 µM |
| COCC(=O)NCCCC(C)(C)CN(C[C@@H](O)[C@H](Cc1ccccc1)NC(=O)O[C@H]1CO[C@H]2OCC[C@H]21)S(=O)(=O)c1ccc2c(c1)OCO2 | fluorescence | Ki |  |  | <0.001 µM |
| CN(C(=O)NC(C)(C)C)[C@@H](Cc1ccccc1)[C@H](O)CNC[C@@H](O)[C@H](Cc1ccccc1)NC(=O)OC(C)(C)C | HPLC | IC50 |  | pH 5.5 | 10 µM |
| COC(=O)NCCCCC(C)(C)CN(C[C@@H](O)[C@H](Cc1ccccc1)NC(=O)O[C@H]1CCOC1)S(=O)(=O)c1ccc(N)cc1 | fluorescence | Ki |  |  | <0.001 µM |
| CC(C)CN(C[C@@H](O)[C@H](Cc1ccccc1)NC(=O)O[C@H]1CO[C@H]2OCC[C@H]21)S(=O)(=O)c1ccc2c(c1)/C(=C/N(C)C)C(=O)N2 | substrate cleavage | Ki | L10 L24 M36 I54 L63 A71 V82 I84 |  | <0.0001 µM |
| CC(C)(CCCNS(=O)(=O)c1ccc(F)cc1)CN(C[C@@H](O)[C@H](Cc1ccccc1)NC(=O)O[C@H]1CO[C@H]2OCC[C@H]21)S(=O)(=O)c1ccc2c(c1)OCO2 | fluorescence | Ki |  |  | <0.001 µM |
| COC(=O)N[C@H](C(=O)NN(CC[C@@]1(Cc2ccccc2)C(=O)N(C2c3ccccc3C[C@H]2O)C[C@H]1O)Cc1ccc(Br)cc1)C(C)(C)C | fluorescence | Ki |  |  | 0.0063 µM |
| COC(=O)NCCCCCC(C)(C)CN(C[C@@H](O)[C@H](Cc1ccccc1)NC(=O)O[C@H]1CO[C@H]2OCC[C@H]21)S(=O)(=O)c1ccc2c(c1)OCO2 | fluorescence | Ki |  |  | <0.001 µM |
| CON[C@H](C(=O)NC(=O)[C@H]1N(C(=O)[C@@H](O)[C@H](Cc2ccccc2)NC(=O)[C@@H](NC(=O)[C@H](Cc2ccccc2)NC(C)=O)C(C)C)CSC1(C)C)C(C)C |  | IC50 |  |  | 0.008 µM |
| CN=C(NC#N)NCCCCC(C)(C)CN(C[C@@H](O)[C@H](Cc1ccccc1)NC(=O)O[C@H]1CO[C@H]2OCC[C@H]21)S(=O)(=O)c1ccc2c(c1)OCO2 | fluorescence | Ki |  |  | <0.001 µM |
| COc1ccc(NC(=O)N[C@@H](C)C(=O)N[C@H](C(=O)N[C@@H](Cc2ccccc2)C(O)C(O)[C@H](Cc2ccccc2)NC(=O)[C@@H](NC(=O)[C@H](C)NC(=O)Nc2ccc(OC)cc2)C(C)C)C(C)C)cc1 |  | IC50 |  |  | 0.014 µM |